These results are taken from patent publication US9598459B2, “Pharmaceutical compositions and methods” (priority 2015, dated 2017).

In one series the test system is MNV MNV-1. As to the kind of experiment: Murine norovirus (MNV-1) antiviral screen in RAW267.4. The format is cell-based. Also noted: SI90: unit not given beside the values.
For series [1], the system named is Norwalk virus (replicon) GT1. As to the kind of experiment: Norwalk virus replicon (GT1) in HG23, RNA hybridization. The format is cell-based, Norwalk virus (human norovirus). On the set-up: SI90: unit not given beside the values. To be noted: for SI50 (CC50/EC50): Norwalk replicon, HG23, Table 10. On the technique in general: In antiviral work, replicon cells carry a viral genome segment that copies itself.

For a further series, the system named is HIV-1 strain LAI. As to the kind of experiment: HIV-1 replication reverse transcriptase (RT) assay in PBMC. The format is cell-based, human immunodeficiency virus type 1. To be noted: for SI50: CC50/EC50; for SI50 (CC50/EC50): HIV-1LAI.
Series [2] concerns Herpes simplex virus type 1 E-377. As to the kind of experiment: Herpes simplex virus type 1 antiviral screen in primary HFF-1 (CellTiter-Glo). It is filed as cell-based. To be noted: CC50/EC50. For orientation: ATP-based viability assays read luminescence as a measure of living cells.
A further series has as its system Poliovirus type 3 WM-3. The format is cell-based. Also noted: SI90: unit not given beside the values.
Series [3] relates to Enterovirus 71 Tainan/4643/98. The format is cell-based. On the set-up: SI90: unit not given beside the values.
For series [4], the system named is Enterovirus D68 US/KY/14-18953. As to the kind of experiment: Enterovirus D68 antiviral screen in RD. The format is cell-based. Also noted: SI50: unit not given beside the values.
The next series deals with HIV-1 LAV. As to the kind of experiment: Inhibition of inducible HIV-1 LAV replication in OM-10.1 (RT values). To be noted: OM-10.1. It is filed as cell-based, human immunodeficiency virus type 1.
Series [5] concerns Vaccinia virus Copenhagen. The format is cell-based. The following applies: CC50/EC50; Primary HFF-1, CellTiter-Glo.
The test system of the next series is Dengue 2. Description: Dengue virus antiviral screen in HUH7. The format is cell-based, dengue virus type 2. To be noted: CC50/EC50.
For a further series, the system named is Zika virus MR766. As to the kind of experiment: Zika virus antiviral screen in HuH-7. The format is cell-based. To be noted: for SI90: CC50/EC90; for SI50 (CC50/EC50): HuH-7, Table 10.
For the next series, the system named is Tacaribe TRVL11573. It is filed as cell-based, Tacaribe virus. On the set-up: unit not given beside the values. To be noted: Vero.
A further series relates to Yellow fever virus 17D. It is filed as cell-based. On the set-up: SI50: unit not given beside the values.
In series [6] the test system is Respiratory syncytial type A A2 (VR-1540). Description: Respiratory syncytial virus type A antiviral screen in MA-104. The format is cell-based. To be noted: CC50/EC50.
A further series concerns Yellow Fever 17D Vaccine. It is filed as cell-based, yellow fever virus. On the set-up: SI50: unit not given beside the values.
Series [7] concerns MERS coronavirus HCoV-EMC/2012. The format is cell-based. On the set-up: unit not given beside the values.
Series [8] has as its system Venezuelan equine encephalitis TC-83. The format is cell-based, Venezuelan equine encephalitis virus. Also noted: SI50: unit not given beside the values.
Series [9] relates to swine-origin pandemic influenza A (H1N1) virus. The format is cell-based. On the set-up: unit not given beside the values.
Where [10] appears, read: Neutral Red, Zika, Example 9, ratio CC50 / EC50.
The mark [11] stands for this setting: CC50/EC50, Norovirus/1968/US, HG23, Replicon.
[12] abbreviates: NV GT1, Example 10, listed as 16-000162.

Values joined by “and” are separate entries in the source; they are usually repeats but may differ in a detail not shown here. Equal entries are not always repeated. Structures can show the parent of a compound that is named as a salt. Where two headings read alike, the source gives them in different places.

Take `CC#CC1(O)CCC2C3CCC4=CC(=NNC(=S)Nc5ccccc5)CCC4=C3C(c3ccc4c(c3)OCO4)CC21C.CC#CC1(O)CCC2C3CCC4=CC(=O)CCC4=C3C(c3ccc4c(c3)OCO4)CC21C.O` (mixture of isomers) [PT156, 1/17(11β,17β)-17-Hydroxy-11-[3,4-(methylenedioxy)phenyl]-17-(1-propyn-1-yl)estra-4,9-dien-3-one (ORG34517)×(2EZ)-2-{(11β,17β)-17-hydroxy-11-[3,4-(methylenedioxy)phenyl]-17-(1-propyn-1-yl)estra-4,9-dien-3-ylidene}-N-phenylhydrazinecarbothioamide [74.1% (E), 25.9% (Z)] 11/17hydrate]: the SI90 with MNV MNV-1 (Example 11) came to 114; in series [1] (NV GT1, Example 10), 1. In addition, the SI50 in the series on MNV MNV-1 (Example 11, ratio CC50 / EC50) is recorded as 363; in [1] (NV GT1, Example 10), 1.

In the case of `Cc1cn([C@H]2C[C@H](N=[N+]=[N-])[C@@H](CO)O2)c(=O)[nH]c1=O` [AZT, 3′-azido-3′-deoxythymidine, reference compound], in the series on HIV-1 strain LAI, the SI50 is listed as over 126582; the “SI50 (CC50/EC50)” value is >22,696 and >22.696. In addition, the “SI50 (CC50/EC50)” value in the series with HIV-1 strain LAI (listed as zidovudine (AZT)) is >22,696 (n = 20).

In turn, `Nc1nc2c(ncn2COCCO)c(=O)[nH]1` [Aciclovir] had an SI50 in [2] of over 39.

Regarding `C[C@@]1(O)[C@H](O)[C@@H](CO)O[C@H]1n1ccc(N)nc1=O` [2′-C-methylcytidine (RS-446), 2′-C-methylcytidine, reference compound], the SI90 with MNV MNV-1 (Example 11) is given as over 10; in [1] (NV GT1, Example 10), over 16. Besides, the SI50 in the series on MNV MNV-1 (Example 11, ratio CC50 / EC50) was over 30; in series [1] (NV GT1, Example 10), over 47. Further, the “SI50 (CC50/EC50)” value in [1] is on record as over 43.

For the compound `CCOC(=O)c1ccc(OCCC2CCN(c3ccc(C)nn3)CC2)cc1` [pirodavir, reference compound], the figures for the “SI50 (CC50/EC50)” value (in the series with Poliovirus type 3 WM-3; in series [3]) were over 31 and over 278, respectively. For the same compound, the SI90 is 56 in the series with Poliovirus type 3 WM-3 and over 43 in series [3].

As for `Nc1ccn([C@@H]2O[C@H](CO)[C@@H](O)[C@H]2O)c(=O)[n+]1[C-2][n+]1c(N)ccn([C@@H]2O[C@H](CO)[C@@H](O)[C@H]2O)c1=O` [TCY-1, Bis(cytidin-3-ium-3-yl)methanediide monohydrochloride×1.25H2O], the “SI50 (CC50/EC50)” value in the series with HIV-1 strain LAI is reported as over 345.

On to `CC(C)S(=O)(=O)n1c(N)nc2ccc(/C(=N/O)c3ccccc3)cc21` [Enviroxime], for which the SI50 in [4] (CC50/EC50, RD, Neutral red) is on record as 250; in series [4] (CC50/EC50, RD, Visual) it was over 320.

For `O=c1c2ccccc2n2nnc3ccc(NCCCN4CCN(CCCNc5ccc6nnn7c8ccccc8c(=O)c5c67)CC4)c1c32` [Temacrazine (TMZ)], in the series on HIV-1 LAV, the “ANTIVIRAL INDEX (AI) 50%” value is reported as over 13.4, the “ANTIVIRAL INDEX (AI) 90%” value was over 1.56 and the “ANTIVIRAL INDEX (AI) 95%” value was over 1.18.

The compound `Nc1ccn(C[C@@H](CO)OCP(=O)(O)O)c(=O)n1` [Cidofovir] returned an SI50 in [5] of over 20.

Regarding `O=c1cnn([C@@H]2O[C@H](CO)[C@@H](O)[C@H]2O)c(=O)[nH]1` [6-azauridine, reference compound], the SI50 in the series with Dengue 2 (HuH-7, Neutral red) was 4.6; with Dengue 2 (HuH-7, Visual), over 36; in the series with Zika virus MR766 (CC50/EC50, HuH-7, Neutral red), over 9.1; with Zika virus MR766 (CC50/EC50, HuH-7, Visual), over 31; in the series with Zika virus MR766 (setting [10]), over 24. In the series on Zika virus MR766 (Zika, Example 9), the SI90 was over 112. Besides, the “SI50 (CC50/EC50)” value in the series with Zika virus MR766 (Zika) is given as over 31.

In the case of `CC#C[C@]1(O)CC[C@H]2[C@@H]3CCC4=CC(=O)CCC4=C3[C@@H](c3ccc4c(c3)OCO4)C[C@@]21C` [PT150, (11β,17β)-11-(1,3-benzodioxol-5-yl)-17-hydroxy-17-(1-propynyl)-estra-4,9-dien-3-one], the SI50 in the series with Dengue 2 (HuH-7, Neutral red) was 0; in the series on Dengue 2 (HuH-7, Visual), 1; with Dengue 2 (Dengue 2, HUH7) it was 1; in the series on Tacaribe TRVL11573 (CC50/EC50, Neutral red) it was 1.1; in the series on Tacaribe TRVL11573 (CC50/EC50, Visual), 1.3; in the series on Tacaribe TRVL11573 (Tacaribe, Table 4), 1.1. Besides, the SI50 with Zika virus MR766 (CC50/EC50, HuH-7, Neutral red) is reported as 1.1; with Zika virus MR766 (CC50/EC50, HuH-7, Visual) it was 1; in the series with Zika virus MR766 (setting [10]), 2.7; with Zika virus MR766 (Zika MR-766, HUH7, Tables 2-3, ratio CC50 / EC50), 1; in series [4] (CC50/EC50, RD, Neutral red), 0; in series [4] (CC50/EC50, RD, Visual), 1. The SI50 in series [4] (Enterovirus 68, RD, Table 4) was 1; in series [2], 1; in the series on Poliovirus type 3 WM-3 (ratio CC50 / EC50), 1.5 and 1.3; in the series with Yellow fever virus 17D it was 1; with HIV-1 strain LAI, 2.3; in [6] (MA-104, Neutral red), 2.3. Also, the SI50 in [6] (MA-104, Visual) was 1.8; in the series on MNV MNV-1 (Example 11, listed as 16-000162, ratio CC50 / EC50) it was 384; in the series on MNV MNV-1 (Example 11, ratio CC50 / EC50), 351; in the series on Yellow Fever 17D Vaccine it was 1.3; in series [3] (CC50/EC50, Vero 76, Neutral red), 0; in series [3] (CC50/EC50, Vero 76, Visual) it was 1. Moreover, the SI50 in series [3] (Enterovirus 71, Vero 76, Table 4, ratio CC50 / EC50) is 1; in series [7], 1.3 and 1.1; in series [5], 1; in series [8] it was 1.1 and 1; in series [9], 0; in [1] (setting [11]), 7.9. Besides, the SI50 in series [1] (NV GT1, Example 10) is on record as over 83; in [1] (setting [12]), over 100. Moreover, the SI90 was 3.4 with Zika virus MR766 (Zika, Example 9); 110 in the series on MNV MNV-1 (Example 11); 121 in the series with MNV MNV-1 (Example 11, listed as 16-000162); over 12 in series [1] (NV GT1, Example 10); over 11 in series [1] (setting [12]). Moreover, the “SI50 (CC50/EC50)” value in the series on Zika virus MR766 (Zika) was found to be 1.0; in the series with Poliovirus type 3 WM-3, 1.3; with HIV-1 strain LAI, 2.3; in [3] (Enterovirus 71, Vero 76, Table 10), 1.0; in series [1], 7.9.

In series [1] (setting [11]), `C[C@@]1(O)[C@H](O)[C@@H](CO)O[C@H]1n1ccc(N)nc1=O` [RS-446] registered an SI50 of over 44.
